The supplement of paper PMC9931576
Human monoclonal antibodies against the spike receptor-binding domain (heavy:light variable regions). IC50 against pseudoviruses bearing the spike of naturally observed variants; lower = stronger; >10 µg/ml means not reached at the top dose. No active / inactive call. The stated detection limit is 0.0005 µg/ml; values near or below 0.001 µg/ml lie at the floor of the assay.

Key:
Assay in all cases: pseudovirus neutralization IC50; higher = weaker neutralization
[1] = target: SARS-CoV-2 Omicron BA.1 spike pseudovirus
Protocol: (§1)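 Single-round VSV luciferase pseudovirus mixed with antibody dilutions for 1 h and put on Huh-7 cells for about a day; IC50 from the dose curve.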

[2] = target: SARS-CoV-2 Omicron BA.2 spike pseudovirus
Protocol: as §1

[3] = target: SARS-CoV-2 Omicron BA.2.75 spike pseudovirus
Protocol: as §1

[4] = target: SARS-CoV-2 Omicron BA.2.75.2 spike pseudovirus
Protocol: as §1

[5] = target: SARS-CoV-2 Omicron BA.5 spike pseudovirus
Protocol: as §1

[6] = target: SARS-CoV-2 Omicron BM.1.1.1 spike pseudovirus
Protocol: as §1

[7] = target: SARS-CoV-2 Omicron BQ.1.1 spike pseudovirus
Protocol: as §1

[8] = target: SARS-CoV-2 Omicron BR.2 spike pseudovirus
Protocol: as §1

[9] = target: SARS-CoV-2 Omicron CA.1 spike pseudovirus
Protocol: as §1

[10] = target: SARS-CoV-2 Omicron XBB spike pseudovirus
Protocol: as §1

[11] = target: SARS-CoV-2 early D614G spike pseudovirus
Protocol: as §1

Row | Binder | pseudovirus neutralization IC50 [1] | pseudovirus neutralization IC50 [2] | pseudovirus neutralization IC50 [3] | pseudovirus neutralization IC50 [4] | pseudovirus neutralization IC50 [5] | pseudovirus neutralization IC50 [6] | pseudovirus neutralization IC50 [7] | pseudovirus neutralization IC50 [8] | pseudovirus neutralization IC50 [9] | pseudovirus neutralization IC50 [10] | pseudovirus neutralization IC50 [11]
1 | BD57-0305 (protein) chain 1: EVQLVESGGGVVRPGGSLRLSCAASGFSFGDYGMNWVRQAPGKGLEWVSAINWNGGSTGYADSVKGRFTISRDNAKNSLYLQMNSLRAEDTALYYCARNMVPRLPLYYFDYWGQGTLVTVSS chain 2: NFMLTQPHSVSESPGKTVTISCTGSSGSIASNYVQWYQQRPGSAPTTVIYEDNQRPSGVPDRFSGSIDSSSNSASLTISGLKTEDEADYYCQSYQSSTVVFGGGTKLTVL | 2.34 µg/mL | 1.29 µg/mL | 1.11 µg/mL | 0.914 µg/mL | 0.629 µg/mL | > 10 µg/mL | 1.38 µg/mL | > 10 µg/mL | > 10 µg/mL | > 10 µg/mL | > 10 µg/mL
2 | BD57-0325 (protein) chain 1: QLQLQESGPGLVKPSETLPLTCTVSGNSISSSSYFWGWIRQPPGKGLEWIGSTYYSGRTDYNPSLKSRVTISVDTSKNQFSLKLSSVTAADTAVYYCARLSIYSSNWHYFDHWGQGTLVTVSS chain 2: QSVLTQPPSVSGAPGQRVTISCTGSSSNIGAGYDVHWYQQLPGTAPKLLIYGNNNRPSAVPDRFSGSNSGTSASLAITGLQAEDEADYYCQSYDTSLSGFWVFGGGTKLTVL | > 10 µg/mL | 0.878 µg/mL | 0.00527 µg/mL | 0.0056 µg/mL | 0.000751 µg/mL | 0.00859 µg/mL | 0.00247 µg/mL | 0.00669 µg/mL | 0.00536 µg/mL | 0.00594 µg/mL | > 10 µg/mL
3 | BD57-0106 (protein) chain 1: EVQLVESGGGLVQPGRSLRLSCAASGFKYDDFAMYWVRQAPGKGLEWVSGISWNSGSIAYADSVEGRFTISRDNAKNSLYLQMNSLRPEDTALYYCAKEFRDCSRTSCYEGVGYYFDYWGQGTLVTVSS chain 2: QLVLTQSPSASASLGASVKLTCTLSSGHTNYAIAWHQQQPEKGPRYLMKVNSDGSHSKGDGIPDRFSGSSSGSERYLTISSLQSEDEADYYCQTWVTGLVVFGGGTKLTVL | > 10 µg/mL | > 10 µg/mL | > 10 µg/mL | > 10 µg/mL | > 10 µg/mL | > 10 µg/mL | > 10 µg/mL | > 10 µg/mL | > 10 µg/mL | > 10 µg/mL | > 10 µg/mL
4 | BD57-0114 (protein) chain 1: QITLKESGPTLVKPTQTLTLTCTFSGFSLSTSGVGVGWIRQPPGKALEWLALIYWDDDKRYSPSLKSRLTITKDTSKNQVVLTMTNMDPVDTATYYCAHRRDRNDYDSSGYYHYWGQGTLVTVSS chain 2: EIVMTQSPATLSVSPGERATLSCRASQSVSSNLAWYQQKPGQAPRLLIYGASTRATGIPARFSGSGSGTEFTLTISSLQSEDFAVYYCQQYDNWPPITFGQGTRLEIK | 2.34 µg/mL | 0.281 µg/mL | 1.5 µg/mL | 0.933 µg/mL | 0.157 µg/mL | > 10 µg/mL | 0.751 µg/mL | > 10 µg/mL | > 10 µg/mL | > 10 µg/mL | > 10 µg/mL
5 | BD57-0308 (protein) chain 1: QVQLVESGGGVVQPGRSLRLSCAASGFSFSNYAMHWVRQAPGKGLEWVAVISYDGGNNKYFVDSVKGRFTISRDNSNNTMYLQMNSLRGEDTAVYYCAKDRATGGFCGSNTCYGFYDAMDVWGQGTTVTVSS chain 2: DIVMTQSPDSLAVSLGERATINCKSSQSVFYSSRDKNYVAWYQQQPGQPPKLLIYWASAREAGVPDRFSGSGSGTDFTLTISSLQATDAAVYYCQQYYTSPHTFGRGTKVEIK | > 10 µg/mL | > 10 µg/mL | > 10 µg/mL | > 10 µg/mL | > 10 µg/mL | > 10 µg/mL | > 10 µg/mL | > 10 µg/mL | > 10 µg/mL | > 10 µg/mL | > 10 µg/mL
6 | BD56-308 (protein) chain 1: QVHLVQSGAEVKKSGSSVKVSCKASGGDFGTSAISWVRQAPGQGLEWMGGILPIFHSRNSAQKFQGRLTISADASTSTAYMELTGLTSEDTALYYCASGGVGPTVSSFFDSWGQGTLVTVSS chain 2: EIVLTQSPGTLSLSPGERATLSCRASQSVSRSDLAWYQLKPGHAPRLLIYGASDRATGIPDRFSGSGSGTDFTLTISRLEPEDFAVYYCQQSTNSPITFGQGTRLDIK | 0.316 µg/mL | 4.03 µg/mL | 2.89 µg/mL | > 10 µg/mL | > 10 µg/mL | > 10 µg/mL | > 10 µg/mL | > 10 µg/mL | > 10 µg/mL | > 10 µg/mL | > 10 µg/mL
7 | BD57-0398 (protein) chain 1: QITLKESGPTLVKPTQTLTLTCTFSGFSLSTSGVGVGWIRQPPGKALEWLALIYWDDDKRYSPSLKNRLTITKDTSRNQVVLTMTNMDPVDTGTYYCAHSHDSSNWYDSGWFDPWGQGTLVTVSS chain 2: DIVMTQSPATLSVSPGERATLSCRASQSVSSNLAWYQQKPGQAPRLLIYGASTRATGIPARFSASGSGTEFTLTISSLQSEDFGVYYCQQYNHWPLYTFGQGTKLEIK | > 10 µg/mL | > 10 µg/mL | > 10 µg/mL | > 10 µg/mL | > 10 µg/mL | > 10 µg/mL | > 10 µg/mL | > 10 µg/mL | > 10 µg/mL | > 10 µg/mL | > 10 µg/mL
8 | BD56-313 (protein) chain 1: EVSLVESGGGLIQPGGSLRLSCAASGLTVSRNYMSWVRQAPGKGLEWVSVIYSGGSTFYADSVKGRFTISRDNSKNTLYLQMNSLRAEDTAVYYCAREGAVAGNVGLAFDIWGLGTMVTVSS chain 2: DIQMTQSPSSLSASVGDRVTITCQASQDIINYLNWYQQKPGKAPKLLIYDASNLETGVPSRFSGSGSGTDFTFTISTLQPEDIATYYCQQYDNLPRAFGPGTKVEIK | 0.00557 µg/mL | 0.00768 µg/mL | 0.647 µg/mL | 1.81 µg/mL | 0.0149 µg/mL | > 10 µg/mL | 2.89 µg/mL | > 10 µg/mL | > 10 µg/mL | > 10 µg/mL | > 10 µg/mL
9 | BD56-323 (protein) chain 1: EVRLVQSGAEVKKPGESLKISCKGSGYSFTSCWIGWVRQMPGKGLEWMGIIYPGDSDTRYSPSFQGQVTISADKSISTAYLQWSSLKASDTAMYYCARPMGFGELGPAFDIWGQGTMVTVSS chain 2: QSVLTQPPSVSAAPGQKVTISCSGSSSNIGNNYVSWYQQLPGTAPKLLIYDSNERPSGIPDRFSGSKSGTSATLGITGLQTGDEADYYCGTWDSSLSALVFGGGTKLTVL | 1.1 µg/mL | > 10 µg/mL | > 10 µg/mL | > 10 µg/mL | > 10 µg/mL | > 10 µg/mL | > 10 µg/mL | > 10 µg/mL | > 10 µg/mL | > 10 µg/mL | > 10 µg/mL
10 | BD56-335 (protein) chain 1: EVQLVQSGAEVKKPGESLKISCKGYGFRFPNYWIGWVRQMPGKGLEWMGIIYADDSDTRYSPSFQGQVTISADKSISTAYVQWSSLKTSDSAMYYCAVAGGYGDYALWYWGQGTLVTVSS chain 2: EIVMTQSPATLSVSPGERATLSCRASQSVSSNLAWYQQKPGQAPRLLIYGASTRATGFPARFSGSGSGTEFTLTISSLQSEDFAVYYCQQYNDWPPAFGQGTKVEIK | 0.0008 µg/mL | 0.00137 µg/mL | 0.00195 µg/mL | 0.00476 µg/mL | 0.000983 µg/mL | 0.00419 µg/mL | 0.00582 µg/mL | 0.00731 µg/mL | 0.00519 µg/mL | > 10 µg/mL | > 10 µg/mL
